# Results reported in patent US20070276049A1 (priority 2003, published 2007).
# Experiments:
# N. gonorrhoeae = assay type: cell-based
# S. aureus MN8 = assay type: cell-based
smiles,measurement,setting,value
"CCCCCCCCCCCC(=O)OCC(O)CO (stereo not drawn) [GML, glycerol monolaurate]",Average colony forming units from two wells,N. gonorrhoeae,<10 colony forming units
same,bacteria in GML treated cells,N. gonorrhoeae,no detectable bacteria
same,bacteria in epithelial cells pre-treated with GML,S. aureus MN8,no bacteria were detectable
